Results of unrelated studies side by side (data: NIAID ChemDB).

Common to all: tests in culture; organism: Reovirus; strain or isolate: TYPE 1; method: cytopathic effect; endpoint: EC50

ECn: concentration that inhibits the pathogen or its effect by n%. Lines come from different laboratories, so protocols vary.

Nc1ncnc2c1ncn2[C@@H]1C=C(CO)[C@@H](O)[C@H]1O ; cells: VERO ; value: 0.7 µg/mL
OC[C@H]1O[C@H](c2cc(Cl)c(F)cc2F)C[C@@H]1O ; cells: VERO ; value: >80 µg/mL
NC(=O)c1cncc([C@@H]2O[C@H](CO)[C@@H](O)[C@@H]2O)c1 ; cells: VERO ; value: ≥100 µg/mL
Nc1ncnc2c1ncn2[C@@H]1C=C(CO)[C@@H](O)[C@@H]1O ; cells: VERO ; value: 70 µg/mL
COc1cc2c(cc1OC)[C@@H]1C(N)CSCON1CC2 ; cells: VERO ; value: 0.2 µg/mL
CC1(CO)CCC(Cn2ccc(=O)[nH]c2=O)C1(C)C ; cells: VERO ; value: >400 µg/mL
NC(=O)CSc1ncnc2c1cnn2COCC(O)CO ; cells: VERO ; value: >400 µg/mL
CC1(CO)CCC(Cc2nc3ncnc(N)c3[nH]2)C1(C)C ; cells: VERO ; value: >10 µg/mL
CC(Sc1ncnc2c1cnn2CCCCO)C(N)=O ; cells: VERO ; value: >400 µg/mL
NC(=O)c1cncc([C@@H]2O[C@H](CO)[C@H](O)[C@@H]2O)c1 ; cells: VERO ; value: ≥100 µg/mL
Nc1nc2c(ccn2[C@H]2CO[C@@H](CO)C2)c(=O)[nH]1 ; cells: VERO ; value: >400 µg/mL
CCON=C[C@H]1O[C@@H](n2cnc3c(N)ncnc32)[C@H](O)[C@@H]1O ; cells: VERO ; value: >100 µg/mL
CO[C@H](CO)[C@@H](O)CCn1cc(C)c(=O)[nH]c1=O ; cells: VERO ; value: >400 µg/mL
N#Cc1cncc([C@@H]2O[C@H](CO)[C@H](O)[C@@H]2O)c1 ; cells: VERO ; value: ≥100 µg/mL
Nc1ccn(CC[C@H](O)CCO)c(=O)n1 ; cells: VERO ; value: >400 µg/mL
CC=NC(=N)c1nc(-c2ccc(C)cc2)n(Cc2ccccc2)n1 ; cells: VERO ; value: 7 µg/mL
CC1(C)[C@@H](CO)CC[C@@]1(C)Cn1cnc2c(N)ncnc21 ; cells: VERO ; value: >400 µg/mL
C[C@@]1(O)[C@@H](CO)O[C@@H](n2cnc3c(N)ncnc32)[C@@H]1O ; cells: VERO ; value: 20 µg/mL
CC=NC(=N)c1nc(-c2ccccc2)n(C/C=C/c2ccccc2)n1 ; cells: VERO ; value: >10 µg/mL
Nc1ncnc2c1ncn2[C@@H]1O[C@H](C=NOCc2ccccc2)[C@@H](O)[C@H]1O ; cells: VERO ; value: >100 µg/mL
CCOC(=O)C1Sc2nnc(-c3cn(-c4ccccc4)nc3-c3ccccc3)n2NC1=O ; cells: VERO ; value: >16 µg/mL
Nc1ncnc2c1ncn2[C@@H]1O[C@H](C=O)C[C@H]1O ; cells: VERO ; value: >200 µg/mL
CC1(CO)CCC(Cn2nnc3c(Cl)nc(N)nc32)C1(C)C ; cells: VERO ; value: >100 µg/mL
Nc1ncnc2c1ncn2[C@H]1OC[C@@H](CO)C1O ; cells: VERO ; value: >80 µg/mL
CC1(CO)CCC(Cn2nnc3c(N)nc(N)nc32)C1(C)C ; cells: VERO ; value: >200 µg/mL
Nc1ncnc2c1ncn2C[C@H](O)CO ; cells: VERO ; value: 70 µg/mL
Nc1ccn(CCCC(O)CF)c(=O)n1 ; cells: VERO ; value: >400 µg/mL
Nc1ncnc2c1ncn2C[C@H](O)CO ; cells: VERO ; value: 70 µg/mL
Nc1ncnc2c1ncn2C1CC(COP(=O)(O)O)[C@@H](O)[C@H]1O ; cells: VERO ; value: ≥10 µg/mL
Nc1ccn([C@@H]2C[C@H](CO)[C@@H](O)[C@H]2O)c(=O)n1 ; cells: VERO ; value: 0.7 µg/mL
Nc1nccc2c1ncn2[C@@H]1C[C@H](CO)[C@@H](O)[C@H]1O ; cells: VERO ; value: 1 µg/mL
C=CCc1ncn2c(=O)[nH]c(NC(C)=O)nc12 ; cells: VERO ; value: >200 µg/mL
N#CC1=CSc2nnc(-c3cn(-c4ccccc4)nc3-c3ccccc3)n2N=C1N ; cells: VERO ; value: >16 µg/mL
CC(=O)Nc1nc2c(CC(O)CO)nc(C)n2c(=O)[nH]1 ; cells: VERO ; value: >200 µg/mL
Cc1cn([C@H]2OC[C@@H](CO)C2F)c(=O)[nH]c1=O ; cells: VERO ; value: >80 µg/mL
C=C(N=CC)c1nc(-c2ccc(C)cc2)n(C2O[C@H](CO)[C@@H](O)[C@H](O)[C@H]2O)n1 ; cells: VERO ; value: >100 µg/mL
CC1(C)[C@@H](CCO)C[C@H]1n1cnc2c(=O)[nH]cnc21 ; cells: VERO ; value: >400 µg/mL
CC1(C)[C@@H](CO)CC[C@@]1(C)Cn1nnc2c(N)ncnc21 ; cells: VERO ; value: >400 µg/mL
CO[C@H](CO)[C@@H](O)CCn1ccc(N)nc1=O ; cells: VERO ; value: >400 µg/mL
OC[C@H]1O[C@@H](c2cncc(Br)c2)[C@@H](O)[C@H]1O ; cells: VERO ; value: ≥100 µg/mL
CC(Sc1ncnc2c1cnn2COCC(O)CO)C(N)=O ; cells: VERO ; value: >400 µg/mL
Nc1nc(Cl)c2ccn([C@H]3CO[C@@H](CO)C3)c2n1 ; cells: VERO ; value: >400 µg/mL
Nc1ncnc2c1ncn2[C@@H]1O[C@H](C=NO)[C@@H](O)[C@H]1O ; cells: VERO ; value: >1 µg/mL
O=c1ccn([C@@H]2O[C@H](CO)[C@](O)(C(F)(F)F)[C@H]2O)c(=O)[nH]1 ; cells: VERO ; value: >400 µg/mL
CC1(C)[C@@H](CCO)C[C@H]1n1nnc2c(N)ncnc21 ; cells: VERO ; value: >100 µg/mL
NC(=S)c1cncc([C@@H]2O[C@H](CO)[C@@H](O)[C@@H]2O)c1 ; cells: VERO ; value: ≥100 µg/mL
O=c1[nH]n2c(-c3cn(-c4ccccc4)nc3-c3ccccc3)nnc2s1 ; cells: VERO ; value: >80 µg/mL
Nc1ncnc2c1ncn2[C@@H]1C=C(CO)[C@@H](O)C1 ; cells: VERO ; value: 20 µg/mL
CC1(CO)CCC(Cn2nnc3c(Cl)ncnc32)C1(C)C ; cells: VERO ; value: >40 µg/mL
CC1(CO)CCC(Cn2cnc3c(N)nc(N)nc32)C1(C)C ; cells: VERO ; value: >40 µg/mL
[N-]=[N+]=NC(CBr)c1cc([C@H]2C[C@H](O)[C@@H](CO)O2)c(F)cc1F ; cells: VERO ; value: >16 µg/mL
C=CCc1nc(C)n2c(=O)[nH]c(=S)[nH]c12 ; cells: VERO ; value: >200 µg/mL
NC(=O)c1cncc([C@H]2O[C@H](CO)[C@@H](O)[C@@H]2O)c1 ; cells: VERO ; value: ≥100 µg/mL
COc1ccc2[nH]c3c(c2c1)CCN1OCSCC(N)[C@@H]31 ; cells: VERO ; value: 0.07 µg/mL
CC=NC(=N)c1nc(-c2ccccc2)n(Cc2ccccc2)n1 ; cells: VERO ; value: >4 µg/mL
CC1(C)[C@@H](CCO)C[C@H]1n1nnc2c(=O)[nH]c(N)nc21 ; cells: VERO ; value: >400 µg/mL
Cc1cn(C(CF)CCCO)c(=O)[nH]c1=O ; cells: VERO ; value: >400 µg/mL
CC1(C)[C@@H](CO)CC[C@@]1(C)Cn1nnc2c(Cl)ncnc21 ; cells: VERO ; value: >400 µg/mL
CC(C)CS[C@@H]1C=C[C@H](n2cnc3c(N)ncnc32)C1 ; cells: HeLa ; value: >3.2 µg/mL
O=C(Nn1c(-c2cn(-c3ccccc3)nc2-c2ccccc2)n[nH]c1=S)c1ccccc1 ; cells: VERO ; value: >16 µg/mL
[N-]=[N+]=N[C@H]1[C@@H](F)[C@H](N2C=CC(N)NC2=O)O[C@@H]1CO ; cells: VERO B ; value: >400 µg/mL
NC1=Nn2c(nnc2-c2cn(-c3ccccc3)nc2-c2ccccc2)SC1 ; cells: VERO ; value: >16 µg/mL
Cc1cn([C@@H]2OC[C@H](CO)[C@H]2O)c(=O)[nH]c1=O ; cells: VERO ; value: >80 µg/mL
NC(=S)c1cncc([C@H]2O[C@H](CO)[C@@H](O)[C@@H]2O)c1 ; cells: VERO ; value: ≥100 µg/mL
NC1CSCCN2CCc3c([nH]c4ccccc34)[C@H]12 ; cells: VERO ; value: 0.7 µg/mL
S=c1[nH]nc(-c2cn(-c3ccccc3)nc2-c2ccccc2)o1 ; cells: VERO ; value: >16 µg/mL

A second listing of 8 rows from above:

SMILES | cells | value
CO[C@H](CO)[C@@H](O)CCn1cc(C)c(=O)[nH]c1=O | VERO | >400 µg/mL
CC=NC(=N)c1nc(-c2ccc(C)cc2)n(Cc2ccccc2)n1 | VERO | 7 µg/mL
Cc1cn([C@@H]2OC[C@H](CO)[C@H]2O)c(=O)[nH]c1=O | VERO | >80 µg/mL
C=CCc1ncn2c(=O)[nH]c(NC(C)=O)nc12 | VERO | >200 µg/mL
CC(Sc1ncnc2c1cnn2COCC(O)CO)C(N)=O | VERO | >400 µg/mL
C[C@@]1(O)[C@@H](CO)O[C@@H](n2cnc3c(N)ncnc32)[C@@H]1O | VERO | 20 µg/mL
Nc1ncnc2c1ncn2[C@@H]1C=C(CO)[C@@H](O)C1 | VERO | 20 µg/mL
CC=NC(=N)c1nc(-c2ccccc2)n(C/C=C/c2ccccc2)n1 | VERO | >10 µg/mL